Measurements as given in patent publication US20200085783A1 (priority 2013, published 2020).

What was measured:
cancer cell lines = test: MTT colorimetric assay, cancer cell line panel (mean, comparison with normal cells)
murine P388 cell lines = settings: Quinn et al. (1974); cited from earlier work
[1] = test system: human Hs683 oligodendroglioma cells; test: Quantitative videomicroscopy
[2] = test system: human U373n glioblastoma cells; test: Quantitative videomicroscopy
[3] = PLTX pharmacokinetics, plasma concentration after s.c. administration; settings: mice, s.c. 2 μg/kg
[4] = test system: MSC (fibroblast primoculture); test: MTT colorimetric assay, in vitro growth inhibition
NHDF (dermal fibroblast) = test: MTT colorimetric assay, in vitro growth inhibition
K562 = test: Growth inhibitory effects on leukaemia cell lines in vitro; settings: read-out: IC50 in vitro growth inhibitory concentration by 50%
MOLM14 = test: as above; settings: read-out: IC50 in vitro growth inhibitory concentration by 50%; MOLM14, 10 h
U937 = test: as above; settings: read-out: IC50 in vitro growth inhibitory concentration by 50%
JURKAT = test: as above
[5] = test system: leukaemia cell lines (K562, JURKAT, U937 and MOLM14); test: Apoptosis induction in leukaemia cell lines; settings: down-regulation of BID, MCL-1, BCL-2, BCL-xL, caspase activation; data not shown

Substance: Palytoxin
- lower sensitivity of normal cells (MSC, NHDF) than cancer cells to PLTX-mediated in vitro growth inhibition (cancer cell lines; normal versus cancer cells, MTT, 72 h): 10^6
- IC50 (cancer cell lines; read-out: IC50 concentration in various cancer cell lines, various cancer cell lines): < 0.001 nM
- activity on leukaemia (murine P388 cell lines): only a marginal activity
- time after treatment at which cells began to die ([1]; Hs683, 0.01 nM PLTX): about 3 h
- time post-treatment at which all cells died ([1]; Hs683, 1 nM PLTX): 1 h
- morphological appearances of treated cells ([1]; Hs683, 1 nM PLTX for 1 h): cell swelling and bubbling
- time after treatment at which cells begin to die ([2]; 0.01 nM PLTX): about 5 h
- time post-treatment at which all cells die ([2]; 1 nM PLTX): 3 h
- morphological appearances of treated cells ([2]; 1 nM PLTX for 3 h): cell swelling and bubbling
- maximal plasmatic concentration relative to efficient PLTX concentration on leukemic human cell lines [3]: 100 fold
- time of maximal PLTX plasmatic concentration following the injection [3]: 1 h
- PLTX plasmatic concentration ([3]; 0.5 h): 0.5-1^ nM
- PLTX plasmatic concentration ([3]; 1 h): 3 to 5 nM
- PLTX plasmatic concentration ([3]; 3 h): 1 to 1.5 nM
- IC50 [4]: > 10000 nM
- IC50 (NHDF (dermal fibroblast)): > 10000 nM
- IC50 (K562; K562, 2 h): 0.0521 nM
- IC50 (K562; K562, 4 h): 0.0328 nM
- IC50 (K562; K562, 6 h): 0.0285 nM
- IC50 (K562; K562, 8 h): 0.0249 nM
- IC50 (MOLM14): 0.0103 nM
- IC50 (U937; U937, 2 h): 0.0248 nM
- IC50 (U937; U937, 4 h): 0.0273 nM
- IC50 (U937; U937, 6 h): 0.014 nM
- IC50 (U937; U937, 8 h): 0.00905 nM
- IC50 (JURKAT; read-out: IC50 in vitro growth inhibitory concentration by 50%, 2 h): 0.0128 nM
- IC50 (JURKAT; read-out: IC50 in vitro growth inhibitory concentration by 50%, 4 h): 0.0135 nM
- IC50 (JURKAT; read-out: IC50 in vitro growth inhibitory concentration by 50%, 6 h): 0.00882 nM
- IC50 (JURKAT; read-out: IC50 in vitro growth inhibitory concentration by 50%, 8 h): 0.00871 nM
- apoptosis in leukaemia cell lines [5]: induces apoptosis

Like-named read-outs stand apart in the source and are kept apart here.
